Laboratory results as given in patent US20240352066A1 (priority 2021, published 2024).
Where a SMILES comes first, the peptide text is derived from it. [ ]: non-standard residue; d: D form. NCyclohexylmethylGly = O=C(O)CNCC1CCCCC1; N(tridecyl)Gly = CCCCCCCCCCCCCNCC(=O)O; Gly(N-2-aminoethyl) = NCCNCC(=O)O; Gly(N-cHex) = O=C(O)CNC1CCCCC1; NPhGly = O=C(O)CNc1ccccc1; NHexGly = CCCCCCNCC(=O)O; Nleu = CC(C)CNCC(=O)O; Nlys = NCCCCNCC(=O)O

System: HepG2 hepatocellular carcinoma cells
Experiment: Mammalian cytotoxicity, MTT, HepG2
Type: cell-based, human
Conditions: Example 2; HepG2 TD50 divided by C. neoformans MIC
Protocol: Hepatocellular carcinoma (HepG2), mouse fibroblast (3T3), human lung (HPL1A), and human keratinocyte (HaCat) cells were cultured in Dulbecco modified eagle media (DMEM) containing 10% fetal bovine serum (FBS) and 1% penicillin, streptomycin, and glutamine (PSG) at 37° C. and 5% CO2. Cells were collected and adjusted to […] to 4×10^5 cells/mL in phenol-red free DMEM and plated (100 μL) 96 well plates. 2-fold serial dilutions of 10× peptoid (11.1 μL) were added to each well in triplicate. Water (vehicle) was used as a negative control. Plates were incubated at 37° C. in 5% CO2 for 72 hours. Thiazolyl blue tetrazolium bromide (MTT) was added to each well (5 mg/mL; 20 μL) and incubated for 3 hours. Media was removed, DMSO (100 μL) was added, and plates were incubated at 37° C. for 10 minutes. Plates were read on a SpectraMax M5 plate reader (Abs. 570 nm). The concentration of compound resulting in a 50% reduction in growth compared to control (toxicity dose 50%; TD50) was determined using GraFit. This procedure was repeated three times on separate days.
Cytotoxicity against HepG2 hepatocellular carcinoma cells was done as previously described (Green et al. ACS infectious diseases, (2022); Corson et al. ACS medicinal chemistry letters 7 12, 1139-1144 (2016)). HepG2 cells were maintained in culture in T-75 flasks using Dulbecco's Modified Eagle's Media (DMEM) with phenol red pH indicator and supplemented with 10% fetal bovine serum (FBS) and 1% penicillin, streptomycin, and glutamine (PSG). The cells were incubated at 37° C. and 5% CO2 in a humidified incubator until desired confluency was achieved. The media was removed from the flask, and the cells were washed 1× with 10 mL of phosphate-buffered saline (PBS; 11.8 mM phosphate, 140.4 mM NaCl; pH 7.4) which was then discarded. To remove the adhered cells from the flask, 2 mL of trypsin was added, and the cells were incubated for 10 minutes. To quench the trypsin, 8 mL of phenol red-free DMEM with 10% FBS and 1% PGS was added, and the cell solution was transferred to a 15 mL conical tube. After the cells were pelleted by centrifugation at 1000 rpm for 5 minutes, the supernatant was poured off and cells resuspended in the volume of phenol red-free media needed for the assay. Cell concentration was determined by counting with a hemocytometer, and the solution was diluted with media until a concentration of 1×10^5 cells/mL was achieved. A 100 μL aliquot of cell solution was added to each well of a 96-well plate, apart from the 3 wells used for a media control. Cells were incubated for 2-3 hours at 37° C. and 5% CO2 until cells were adherent.
Compound stocks of 20 mg/mL were used to prepare 2-fold serial dilutions of each compound in sterile water, giving final concentrations of 200, 100, 50, 25, 12.5, 6.25, 3.13 and 1.56 μg/mL. 11.1 μL of prepared compound solutions was added to the appropriate wells in triplicate. A negative vehicle control of sterile water, as well as the aforementioned media control, were used. The plates were incubated for 72 hours at 37° C. and 5% CO2. After incubation, 20 μL of 5 mg/mL 3-(4,5-dimethylthiazol-2-yl)-2,5-diphenyltetrazolium bromide (MTT) in water was added to each well. The plate was incubated for 3 hours at 37° C. and 5% CO2. Media was removed from each well using a sterile glass Pasteur pipette. 100 μL of DMSO was added to each well and incubated for 15 minutes at 37° C. Absorbance was read at 570 nm using a SpectraMax M5 Plate Reader. […]

Row | SMILES | Selectivity Ratio
1 | CCCCCCCCCCCCCNCC(=O)N(CCCCN)CC(=O)N(CC(=O)N(CC(=O)N(CCN)CC(N)=O)C1CCCCC1)C1CCCCC1 [Compound 3] (H-[N(tridecyl)Gly][Nlys][Gly(N-cHex)][Gly(N-cHex)][Gly(N-2-aminoethyl)]-NH2) | 34
2 | CCCCCCCCCCCCCNCC(=O)N(CC(=O)N(CCCCN)CC(=O)N(CCN)CC(=O)N(CC(N)=O)CC(C)C)CC(C)C [Compound 9] (H-[N(tridecyl)Gly][Nleu][Nlys][Gly(N-2-aminoethyl)][Nleu]-NH2) | 53
3 | CCCCCCCCCCCCCNCC(=O)N(CCCCCC)CC(=O)N(CCCCN)CC(=O)N(CCN)CC(=O)N(CCCCCC)CC(N)=O [Compound 10] (H-[N(tridecyl)Gly][NHexGly][Nlys][Gly(N-2-aminoethyl)][NHexGly]-NH2) | 19-39
4 | CCCCCCCCCCCCCNCC(=O)N(CC(=O)N(CCCCN)CC(=O)N(CCN)CC(=O)N(CC(N)=O)CC1CCCCC1)CC1CCCCC1 [Compound 12] (H-[N(tridecyl)Gly][NCyclohexylmethylGly][Nlys][Gly(N-2-aminoethyl)][NCyclohexylmethylGly]-NH2) | 20-40
5 | CCCCCCCCCCCCCNCC(=O)N(CC(=O)N(CCCCN)CC(=O)N(CCN)CC(=O)N(CC(N)=O)c1ccccc1)c1ccccc1 [Compound 14] (H-[N(tridecyl)Gly][NPhGly][Nlys][Gly(N-2-aminoethyl)][NPhGly]-NH2) | 26-52
